How the values were obtained:
[1] = test system: CEM cells; assay: Uptake kinetics with 125I-labeled conjugates; assay type: cell-based; conditions: slope of Hill plot of uptake data, 125I-labeled conjugate, room temperature, 30 s
In short: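 125I-labeled conjugate purified by gel filtration and C18 reverse phase, quantified at A260, and specific radioactivity set with unlabeled conjugate. 1 × 10^6 CEM cells exposed to varying concentrations at room temperature for 30 s, then filtered on glass fiber, washed with PBS. Internalized conjugate measured by gamma counting from specific radioactivity; nH taken from Hill plot slope.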

[2] = test system: VSV-G pseudotyped HIV-1 in CEM cells; conditions: 48 h
[3] = test system: VSV-G pseudotyped HIV-1 virions; conditions: 1 h

Structure (SMILES) | Hill coefficient (nH) of uptake [1] | IC50 [2] [nM] | IC50 [3] [nM]
CC[C@H](C)[C@H](NC(=O)[C@H](CCCCNC(=O)[C@@H](N)CSSC[C@H](NC(C)=O)C(=O)NCCN(CC(=O)NCCN(CC(=O)NCCN(CC(=O)NCCN(CC(=O)NCCN(CC(=O)NCCN(CC(=O)NCCN(CC(=O)NCCN(CC(=O)NCCN(CC(=O)NCCN(CC(=O)NCCN(CC(=O)NCCN(CC(=O)NCCN(CC(=O)NCCN(CC(=O)NCCN(CC(=O)NCCN(CC(N)=O)C(=O)Cn1cc(C)c(=O)[nH]c1=O)C(=O)Cn1ccc(N)nc1=O)C(=O)Cn1cc(C)c(=O)[nH]c1=O)C(=O)Cn1cnc2c(N)ncnc21)C(=O)Cn1cnc2c(=O)[nH]c(N)nc21)C(=O)Cn1cnc2c(N)ncnc21)C(=O)Cn1ccc(N)nc1=O)C(=O)Cn1cc(C)c(=O)[nH]c1=O)C(=O)Cn1ccc(N)nc1=O)C(=O)Cn1cnc2c(=O)[nH]c(N)nc21)C(=O)Cn1cnc2c(=O)[nH]c(N)nc21)C(=O)Cn1cnc2c(N)ncnc21)C(=O)Cn1ccc(N)nc1=O)C(=O)Cn1ccc(N)nc1=O)C(=O)Cn1ccc(N)nc1=O)C(=O)Cn1cc(C)c(=O)[nH]c1=O)NC(=O)CNC(=O)[C@H](CC(C)C)NC(=O)[C@H](CC(C)C)NC(=O)[C@H](Cc1ccc(O)cc1)NC(=O)CNC(=O)[C@H](C)NC(=O)[C@H](CO)NC(=O)[C@H](CC(N)=O)NC(=O)[C@H](CC(C)C)NC(=O)[C@H](Cc1ccc(O)cc1)NC(=O)[C@H](Cc1c[nH]c2ccccc12)NC(=O)CN)C(=O)N[C@@H](CC(N)=O)C(=O)N[C@@H](CC(C)C)C(=O)N[C@@H](CCCCN)C(=O)N[C@@H](C)C(=O)N[C@@H](CC(C)C)C(=O)N[C@@H](C)C(=O)N[C@@H](C)C(=O)N[C@@H](CC(C)C)C(N)=O [PNATAR–transportan-22] | 1.8 | – | –
CC[C@H](C)[C@H](NC(=O)[C@H](CCCCN)NC(=O)[C@H](CCCCN)NC(=O)[C@H](C)NC(=O)[C@H](CC(C)C)NC(=O)[C@H](C)NC(=O)[C@H](C)NC(=O)[C@H](CC(C)C)NC(=O)[C@H](C)NC(=O)[C@H](CCCCN)NC(=O)[C@H](CC(C)C)NC(=O)[C@H](CC(N)=O)NC(=O)[C@@H](NC(=O)[C@H](CCCCNC(=O)[C@@H](N)CSSC[C@H](NC(C)=O)C(=O)NCCN(CC(=O)NCCN(CC(=O)NCCN(CC(=O)NCCN(CC(=O)NCCN(CC(=O)NCCN(CC(=O)NCCN(CC(=O)NCCN(CC(=O)NCCN(CC(=O)NCCN(CC(=O)NCCN(CC(=O)NCCN(CC(=O)NCCN(CC(=O)NCCN(CC(=O)NCCN(CC(=O)NCCN(CC(N)=O)C(=O)Cn1cc(C)c(=O)[nH]c1=O)C(=O)Cn1ccc(N)nc1=O)C(=O)Cn1cc(C)c(=O)[nH]c1=O)C(=O)Cn1cnc2c(N)ncnc21)C(=O)Cn1cnc2c(=O)[nH]c(N)nc21)C(=O)Cn1cnc2c(N)ncnc21)C(=O)Cn1ccc(N)nc1=O)C(=O)Cn1cc(C)c(=O)[nH]c1=O)C(=O)Cn1ccc(N)nc1=O)C(=O)Cn1cnc2c(=O)[nH]c(N)nc21)C(=O)Cn1cnc2c(=O)[nH]c(N)nc21)C(=O)Cn1cnc2c(N)ncnc21)C(=O)Cn1ccc(N)nc1=O)C(=O)Cn1ccc(N)nc1=O)C(=O)Cn1ccc(N)nc1=O)C(=O)Cn1cc(C)c(=O)[nH]c1=O)NC(=O)CNC(=O)[C@H](CC(C)C)NC(=O)[C@H](CC(C)C)NC(=O)[C@H](Cc1ccc(O)cc1)NC(=O)CNC(=O)[C@H](C)NC(=O)[C@H](CO)NC(=O)[C@H](CC(N)=O)NC(=O)[C@H](CC(C)C)NC(=O)[C@H](Cc1ccc(O)cc1)NC(=O)[C@H](Cc1c[nH]c2ccccc12)NC(=O)CN)[C@@H](C)CC)C(=O)N[C@@H](CC(C)C)C(N)=O [PNATAR–transportan-27] | – | 400 | 66

Source: article PMC1182329 (Nucleic Acids Research, 2005)
